Pooled drug test results. Numbers come from NIAID ChemDB, via PubChem.

Common to all: growth or infection tests; organism: Mycobacterium tuberculosis

MIC50, MIC90 and the like: level of inhibition, or share of isolates inhibited. ECn: concentration that inhibits the pathogen or its effect by n%. An empty or dashed field is not shown. Neighbouring rows are from separate reports. MIC bound comes from a single tested concentration. a–b is a range or a potency band. Inhibition is in % at the dose shown (toxicity tests: loss of growth or viability).

compound,tested at,read by,strain or isolate,measure,value
O=C(O)CN1CCCN(CC(=O)O)Cc2cccc(n2)CN(CC(=O)O)CCC1,7.5 µg/mL,radiometric,H37Rv,inhibition,99%
NC(=O)c1c(NC(=O)C2CC2)sc2cc(O)c(Br)cc12,-,resazurin / absorbance,H37Rv,MIC,>100 µM
CC(=O)O[C@H]1C2=C(C(=O)C(=O)C(C(C)C)=C2O)[C@@]2(C)CCCC(C)(C)[C@@H]2[C@@H]1O,-,MTT,MDR,MIC100,3.12 µg/mL
C[C@@H](O)[C@H]1C(=O)N2C(C(=O)O)=C(S[C@@H]3CCCN3)S[C@H]12,-,visual reading,H37Rv,MIC,0.5 µg/mL
CC(C)=CCC[C@H](C)[C@H]1CC[C@H](C)c2c1cc(C)c1ncoc21,-,-,-,EC50,<12.5 µg/mL
O=C(N/N=C/c1cc2cc(F)ccc2[nH]c1=O)c1cccnc1,-,resazurin / visual reading,H37Rv,MIC,50 µg/mL
O=C(Nc1cccc([N+](=O)[O-])c1)c1cc2ccccc2cc1O,-,-,H37Rv,MIC99,750 µg/mL
COC(=O)C1=C(C)NC(Nc2ccc(Br)cc2)=NC1c1ccc(Cl)cc1,-,agar,MDR-TB,MIC,64 µg/mL
Clc1ccc(C(Cn2ccnc2)NCc2cccc3ccccc23)cc1,-,-,CIP103471,MIC,8 µg/mL
CCC(=O)O[C@@H]1C(OC(C)=O)C2=C(C(=O)C(=O)C(C(C)C)=C2O)[C@@]2(C)CCCC(C)(C)[C@H]12,-,MTT,H37Rv,MIC100,>25 µg/mL
CC(C)=CCC(OC(=O)C=C(C)C)c1cc(O)c2c(c1O)C(=O)C=CC2=O,-,BACTEC,H37Rv,MIC,≥12.8 µg/mL
O=C(NC(=S)NCc1cccs1)c1csc([N+](=O)[O-])c1,-,resazurin,-,MIC,20 µg/mL
O=[N+]([O-])c1ncn2c1OC(CCl)C2,-,-,H37Rv,MIC,>10 µg/mL
CCN1CCC[C@H]1SC1=C(C(=O)O)N2C(=O)[C@H]([C@@H](C)O)[C@H]2S1,-,visual reading,H37Rv,MIC,4 µg/mL
COC(=O)C1=C(C)NC(Nc2cccc(Br)c2)=NC1c1ccc(Cl)cc1,-,agar,XDR-TB,MIC,>64 µg/mL
Cc1csc(C(C)(O)c2nnc(Nc3ncn(Cc4c(F)cccc4F)n3)s2)n1,-,-,WILD TYPE,MIC,1.56 µM
C(=C\c1ccccc1)/CO/N=C(/Cn1ccnc1)c1ccccc1,-,-,CIP103471,MIC,8 µg/mL
c1ccc(-c2ccc(CNC(Cn3ccnc3)c3ccccc3)cc2)cc1,-,-,CIP103471,MIC,4 µg/mL
COC(=O)C1=C(C)NC(Nc2ccc(F)c(Br)c2)=NC1c1ccc(Cl)cc1,-,agar,H37Rv,MIC,8 µg/mL
c1ccc(/C(Cn2ccnc2)=N\OCc2cccc3ccccc23)cc1,-,-,CIP103471,MIC,8 µg/mL
COC1/C=C\C=C(/C)C(=O)Nc2cc3nc4ccc(Br)cc4oc-3c(c2=O)CC(C)CC(OC)C(O)C(C)/C=C(\C)C1OC(N)=O,-,-,PZA-R,MIC,12.5 µg/mL
CCSc1nc(Cl)c(C#N)c(-c2ccc(F)cc2F)n1,-,-,H37Rv,MIC,>25 µg/mL
CN1CCN(CCNc2ccc(CO)c3sc4ccccc4c(=O)c23)CC1,12.5 µg/mL,BACTEC,H37Rv,inhibition,86%
NC(N)=N[C@H]1[C@H](O)[C@@H](O)[C@H](OCCO[C@@H]2O[C@H](CO)[C@@H](O)[C@H](O)[C@H]2O)[C@@H](N=C(N)N)[C@@H]1O,-,-,666,MIC,>100 µg/mL
CC(=O)O[C@H]1C2=C(C(=O)C(C(=O)Oc3ccc([N+](=O)[O-])cc3)=C(C(C)C)C2=O)[C@@]2(C)CCCC(C)(C)[C@@H]2[C@@H]1O,-,MTT,MDR,MIC100,3.12 µg/mL
O=C(N/N=C/c1cn(-c2ccc(Cl)cc2)nn1)c1ccncc1,-,resazurin,H37Rv,MIC,0.62 µg/mL
CCC(=O)OC1=C(C(C)C)C(=O)C2=C(C1=O)[C@@]1(C)CCCC(C)(C)[C@@H]1[C@H](OC(=O)CC)C2OC(C)=O,-,MTT,MDR,MIC100,6.25 µg/mL
CC.COC(=O)[C@H]1Cc2cc(O)c(O)cc2C2(CCN(C)CC2)O1.Cc1ccc(S(=O)(=O)O)cc1,-,BACTEC,H37Rv,MIC bound,>12.5 µg/mL
c1ccc(C(Cn2ccnc2)NCc2cccc3ccccc23)cc1,-,-,CIP103471,MIC,8 µg/mL
NNC(=O)c1ccncc1,-,-,38 strains,MIC50,0.39 µg/mL
O=[N+]([O-])c1ccc(-c2nn3cc(C45CC6CC(CC(C6)C4)C5)nc3s2)cc1,-,resazurin,H37Rv,MIC,28.7 µM
CN1[C@@H]2CC[C@H]1CC(OC(c1ccccc1)c1ccccc1)C2,-,-,H37Rv,MIC99,250 µg/mL
CCCCCCCCO[C@@H]1O[C@@H](C(CO[C@@H]2O[C@@H](C(COC(C)=O)OC(C)=O)[C@H](OC(C)=O)[C@H]2OC(C)=O)OC)[C@H](OC)[C@H]1OC,-,-,H37Ra,MIC,>128 µg/mL
O=C(COc1cccc2c1CCC2)N/N=C/c1cc2cc(F)ccc2[nH]c1=O,-,resazurin / visual reading,H37Rv,MIC,25 µg/mL
O=c1ccc2c(-c3ccccc3O)c3ccc(O)cc3oc-2c1,-,BACTEC,H37Rv,MIC bound,>12.5 µg/mL
CCCCCCCCOC1O[C@@H](C(O)COC2O[C@@H](C(O)CO)[C@H](O)[C@H]2O)[C@H](O)[C@H]1O,-,-,H37Ra,MIC,>128 µg/mL
CCSc1nc(Cl)c(C#N)c(-c2ccco2)n1,-,-,H37Rv,MIC,1.56 µg/mL
Clc1ccc(/C(Cn2ccnc2)=N\OC/C=C/c2ccccc2)c(Cl)c1,-,-,CIP103471,MIC,8 µg/mL
CC1COc2c(N3CCN(C(=O)c4ccco4)CC3)c(F)c([N+](=O)[O-])c3c(=O)c(C(=O)O)cn1c23,-,agar,-,MIC99,0.8 µM
CC(C)=CC[C@H](O)C1=CC(=O)c2c(O)ccc(O)c2C1=O,-,-,INH-r,MIC,6.4 µg/mL
CC(=O)O[C@H]1C2=C(C(=O)C(=O)C(C(C)C)=C2O)[C@@]2(C)CCCC(C)(C)[C@@H]2[C@@H]1C(=O)Oc1ccc([N+](=O)[O-])cc1,-,MTT,MDR,MIC100,25 µg/mL
COc1ccc(-c2nn3cc(C45CC6CC(CC(C6)C4)C5)nc3s2)cc1,-,resazurin,H37Rv,MIC,8.5 µM
C[C@H]1COc2c(N3CCC(n4c(=O)[nH]c5cc(Cl)ccc54)CC3)c(F)cc3c(=O)c(C(=O)O)cn1c23,-,agar,MDR-TB,MIC99,0.76 µM
CC(=O)OC1CC2C(C)(C)CCCC2(C)C2C(=O)C(O)=C(C(C)C)C(=O)C12,-,BACTEC,H37Rv,MIC,6.25 µg/mL
CC[C@H]1OC(=O)[C@H](C)[C@@H](O[C@H]2C[C@@](C)(OC)[C@@H](OC(C)=O)[C@H](C)O2)[C@H](C)[C@@H](O[C@@H]2O[C@H](C)C[C@H](N(C)C)[C@H]2O)C(C)(O)C[C@@H](C)/C(=N\OCCCC2CCCCC2)[C@H](C)[C@@H](O)[C@]1(C)O,-,-,6,MIC,1.56 µg/mL
CC(C)=CC(=O)C[C@@H](C)[C@H]1CC[C@@]2(C)C(=O)C=C(C)CC[C@H]12,6.25 µg/mL,-,H37Rv,inhibition,0%
CC(C)c1ccc2c(c1)C=C1OC(=O)[C@]3(C)CCC[C@@]2(C)C13,12.5 µg/mL,BACTEC,H37Rv,inhibition,15%
Clc1ccc(C(Cn2ccnc2)NC/C=C/c2ccccc2)cc1,-,-,CIP103471,MIC,>16 µg/mL
CO[C@H]1/C=C/O[C@@]2(C)Oc3c(C)c(O)c4c(O)c(c(/C=N/N5CCN(C)CC5)c(O)c4c3C2=O)NC(=O)/C(C)=C\C=C\[C@H](C)[C@H](O)[C@@H](C)[C@@H](O)[C@@H](C)[C@H](OC(C)=O)[C@@H]1C,-,-,38 strains,MIC90,>100 µg/mL
C1=Nc2ccccc2N=Cc2ccccc2NCCNc2ccccc21,6.25 µg/mL,resazurin,H37Rv,inhibition,25%
Cc1csc([C@](C)(O)c2nnc(Nc3ccn(Cc4c(F)cccc4F)n3)s2)n1,-,-,M103L,MIC,>25 µg/mL
COC(=O)C1C(O)C(C)C(OC(C)=O)C(C)/C=C\C=C(/C)C(=O)Nc2c(C)c(OC(C)=O)c3c(c2O)C(=O)C(C)=C2OCOC(=C23)/C(C)=C/C(C)(O)C(O)C(C)C1O,-,-,EMB-R,MIC,>12.5 µg/mL
COC(=O)C1=C(C)NC(=NCc2ccc(OC)cc2OC)NC1c1ccc(Cl)cc1,-,agar,XDR-TB,MIC,>64 µg/mL
NS(=O)(=O)c1ccc(NC(=O)C(=O)C(O)C(O)C(O)CO)cc1,6.25 µg/mL,resazurin,H37Rv,inhibition,1%
CC1COc2c(N3CCN(C)C(c4ccccc4)C3)c(F)c([N+](=O)[O-])c3c(=O)c(C(=O)O)cn1c23,-,agar,-,MIC99,3.23 µM
Fc1ccc(C(Cn2ccnc2)NCc2ccc(-c3ccccc3)cc2)cc1,-,-,CIP103471,MIC,4 µg/mL
CN(C)C(=S)SCC(=O)NC(CO)C(=O)O,-,BACTEC,H37Rv,MIC,≥128 µg/mL
NC(=O)c1cnccn1,-,resazurin,H37Rv,MIC,12.5 µM
CCc1nc(N)nc(N)c1-c1ccc(Cl)cc1,-,-,H37Rv,MIC,129 µM
O=C1c2ccccc2-c2n[nH]c3cccc1c23,12.5 µg/mL,BACTEC,H37Rv,inhibition,86%
COc1ccc(-c2csc(Nc3c(OC)cccc3OC)n2)cc1,-,agar,H37Rv,MIC,>12.5 µg/mL
CN(C)c1c([N+](=O)[O-])cc(N2C(=O)C=CC2=O)cc1[N+](=O)[O-],-,BACTEC,H37Rv,MIC bound,>12.5 µg/mL
Cc1onc(-c2c(F)cccc2F)c1C(=O)N1CCN(c2c(F)cc3c(=O)c(C(=O)O)cn4c3c2OCC4C)CC1,-,agar,-,MIC99,10.99 µM
[Cl][Sn]([Cl])([Cl])[Cl].c1cnc2c(c1)ccc1cccnc12,12.5 µg/mL,BACTEC,H37Rv,inhibition,95%
CN(Cc1cc(Br)cc(Br)c1N)C1CCCCC1,-,-,5 isolates,MIC,128–256 µg/mL
CC(=O)O[C@H]1C2=C(C(=O)C(OC(=O)c3ccccc3)=C(C(C)C)C2=O)[C@@]2(C)CCCC(C)(C)[C@@H]2[C@@H]1OC(=O)c1ccccc1,-,MTT,MDR,MIC100,1.56 µg/mL
NNC(=O)c1ccncc1,-,-,H37Rv,MIC,0.3 µg/mL
C(=C\c1ccccc1)/CNC(Cn1ccnc1)c1ccccc1,-,-,CIP103471,MIC,16 µg/mL
NC(=O)NC1NC(=O)NC1=O,-,BACTEC,H37Rv,MIC,≥128 µg/mL
CCCCCCCCO[C@H]1OC([C@@H](COC)O[C@H]2O[C@H]([C@@H](O)CO)[C@@H](O)[C@@H]2O)[C@@H](OC)[C@@H]1OC,-,-,H37Ra,MIC,>12.8 µg/mL
CCCCCCN(CCCCCC)C1=CC(=O)C(=O)c2ccccc21,6.25 µg/mL,resazurin,H37Rv,inhibition,85%
Fc1ccc(/C(Cn2ccnc2)=N/OCc2ccc(-c3ccccc3)cc2)cc1,-,-,CIP103471,MIC,8 µg/mL
CN(C)C(=O)c1ccc(N=Nc2c(N)c(N=Nc3ccc(-c4ccc(N=Nc5ccc(O)c(C(=O)O)c5)cc4)cc3)cc(S(=O)(=O)O)c2N)cc1,-,BACTEC,H37Rv,MIC,≥12.5 µg/mL
COC(=O)C1=C(C)NC(Nc2ccc([N+](=O)[O-])cc2O)=NC1c1ccc(Cl)cc1,-,agar,MDR-TB,MIC,32 µg/mL
O=C(CCc1ccc(O)c(O)c1)c1ccc(O)c(O)c1O,12.5 µg/mL,BACTEC,H37Rv,inhibition,22%
c1ccc(-c2nn3cc(C45CC6CC(CC(C6)C4)C5)nc3s2)cc1,-,resazurin,H37Rv,MIC,10.5 µM
Cc1cc2nc(C/C(=N\O)c3ccncc3)c(C/C(=N\O)c3ccncc3)nc2cc1C,12.5 µg/mL,BACTEC,H37Rv,inhibition,-70%
O=C(N[C@@H]1COc2nc([N+](=O)[O-])cn2C1)OCc1ccc(OC(F)(F)F)cc1,-,-,H37Rv,MIC,0.06 µg/mL

The first 9 rows once more:

compound | tested at | read by | strain or isolate | measure | value
O=C(O)CN1CCCN(CC(=O)O)Cc2cccc(n2)CN(CC(=O)O)CCC1 | 7.5 µg/mL | radiometric | H37Rv | inhibition | 99%
NC(=O)c1c(NC(=O)C2CC2)sc2cc(O)c(Br)cc12 | - | resazurin / absorbance | H37Rv | MIC | >100 µM
CC(=O)O[C@H]1C2=C(C(=O)C(=O)C(C(C)C)=C2O)[C@@]2(C)CCCC(C)(C)[C@@H]2[C@@H]1O | - | MTT | MDR | MIC100 | 3.12 µg/mL
C[C@@H](O)[C@H]1C(=O)N2C(C(=O)O)=C(S[C@@H]3CCCN3)S[C@H]12 | - | visual reading | H37Rv | MIC | 0.5 µg/mL
CC(C)=CCC[C@H](C)[C@H]1CC[C@H](C)c2c1cc(C)c1ncoc21 | - | - | - | EC50 | <12.5 µg/mL
O=C(N/N=C/c1cc2cc(F)ccc2[nH]c1=O)c1cccnc1 | - | resazurin / visual reading | H37Rv | MIC | 50 µg/mL
O=C(Nc1cccc([N+](=O)[O-])c1)c1cc2ccccc2cc1O | - | - | H37Rv | MIC99 | 750 µg/mL
COC(=O)C1=C(C)NC(Nc2ccc(Br)cc2)=NC1c1ccc(Cl)cc1 | - | agar | MDR-TB | MIC | 64 µg/mL
Clc1ccc(C(Cn2ccnc2)NCc2cccc3ccccc23)cc1 | - | - | CIP103471 | MIC | 8 µg/mL